Experimental data taken from patent US10323012B2 (priority 2012, dated 2019).

Test system: HIV/VSV-G virions

| Substance | Selective Index (CC50/IC50), anti-HIV |
| --- | --- |
| 8′,10′-Dihydroxy-miliusate | 9.5 |
| 10′-Hydroxy-8′-oxo-miliusate | 12.1 |
